Measured values published in ChEMBL document CHEMBL4145559 (ACS Med Chem Lett, 2018).

What follows are compounds tested on Yersinia pestis (assay: Antimicrobial activity against Yersinia pestis KIM6+ harboring arabinose inducible type 1 signal peptidase in presence of 2% arabinose).

Compared with `C[C@@H](O)[C@H]1C(=O)N2C(C(=O)O)=C(S[C@H]3CCNC3)S[C@H]12`, `C[C@@H](O)[C@H]1C(=O)N2C(C(=O)O)=C(S[C@@H]3CCNC3)S[C@H]12` is 4-fold higher in MIC: 32 µg/mL for the first, 128 µg/mL for the second.

`C[C@@H](O)[C@H]1C(=O)N2C(C(=O)O)=C(SCCN)S[C@H]12` and `C[C@@H](O)[C@H]1C(=O)N2C(C(=O)O)=C(SCCO)S[C@H]12` are the same in MIC: 128 µg/mL for the first, 128 µg/mL for the second.

Going from `CCCCCCCCCCCCCCCC(=O)N(C)[C@H](CO)C(=O)N[C@H](C)C(=O)NCC(=O)N(C)[C@@H]1C(=O)N[C@@H](C)C(=O)N[C@H](C(=O)O)Cc2ccc(O)c(c2)-c2cc1ccc2O` to `C[C@@H](O)[C@H]1C(=O)N2C(C(=O)O)=C(CCc3ccccn3)S[C@H]12`, the MIC falls from 128 µg/mL to 64 µg/mL (2-fold).

First: C[C@@H](O)[C@H]1C(=O)N2C(C(=O)O)=C(SCCNC=N)S[C@H]12
Second: C[C@@H](O)[C@H]1C(=O)N2C(C(=O)O)=C(SCCOC(N)=O)S[C@H]12 [Sch-34343]
The MIC of the first is 2-fold higher: 128 µg/mL for the first, 64 µg/mL for the second.

These compounds were tested on Yersinia pestis (assay: Antimicrobial activity against Yersinia pestis KIM6+ harboring arabinose inducible type 1 signal peptidase).

First: C[C@@H](O)[C@H]1C(=O)N2C(C(=O)O)=C(SCCNC=N)C[C@H]12
Second: CCCCCCCCCCCCCCCC(=O)N(C)[C@H](CO)C(=O)N[C@H](C)C(=O)NCC(=O)N(C)[C@@H]1C(=O)N[C@@H](C)C(=O)N[C@H](C(=O)O)Cc2ccc(O)c(c2)-c2cc1ccc2O
The MIC of the first is 4-fold lower: 1 µg/mL (≈ 3.34 µM) for the first, 4 µg/mL (≈ 4.54 µM) for the second.

Values after ≈ are worked out from the molar mass of the structure shown.
